Human monoclonal antibodies against the spike receptor-binding domain (heavy:light variable regions). IC50 against pseudoviruses bearing the spike of naturally observed variants; lower = stronger; >10 µg/ml means not reached at the top dose. No active / inactive call. The stated detection limit is 0.0005 µg/ml; values near or below 0.001 µg/ml lie at the floor of the assay.
B1: BD55-6312 (protein)
chain 1: QVQLVQSGSELKKPGASVKVSCKASGYTFTSYTMNWVRQAPGQGLEWMGWINTNTGNPMYAQGFTGGRFVFSLDTSVSTAYLQISSLKAEDTAVYYCARLNGDSSNWNTWPIDYWGQGALVTVSS
chain 2: SYVLTQPPSVSVAPGQTARITCAGDSIGSKNVHWYQQKPGQAPVLVISYDSDRPSGIPERFSGSNSGNTATLTLSRVEAGDEADYYCQVWDSTTGHPGYVFGTGTKVTVL
B2: BD55-6317 (protein)
chain 1: QVQLQETGPGLVKSSGTLSLTCSVSGGSIASRSYLWGWIRQPPGKGLEWIGSFQYTGSRDYNPSLRSRATISADTSKNQLSLKVTSVTAADTAVYYCARQGGGDYYFENWGQGTLVTVSS
chain 2: DIQMTQSPSTLSASVGDRVTITCRASQSVNWWLAWYQQKPGKAPTLLIYKASILESGVPSRFSGSGHGTEFSLTVSSLQPDDFATYYCQQYNDFPYTFGQGTRLEIK
B3: BD55-1223 (protein)
chain 1: ELQLVESGGGLVQPGGSLRLSCIGSGYSINSYSMSWVRQAPGKGLEWVAYISTSSRTMYYADSVKGRFTISRDYGENSLSLEMNSLRAEDTAVYYCHIEPVPAAMGFDHWGQGTLVTVSS
chain 2: DIQMTQSPSSLSASIGDRVTITCRASQDIRNSLAWYQQKPGKAPKLLIYAASTLQSGVPSRFRGSGSGTDFTLSISSLQPEDVATYYCQKYDSALRTFGQGTKVEIK
B4: BD55-6323 (protein)
chain 1: QVQLVESGGGVVQPGRSLRLSCAASGFTFSDYGMHWVRQAPGKGLEWVAVIWNDGTYKYYADSVKGRFTISRDNSKNTLFLQMNSLRAEDTAVYYCARDSLCSGGNCYFDYNWFDPWGQGTLVTVSS
chain 2: EIVLTQSPATLSLSPGERATLSCRASQSVSSNLAWYQQKPGQAPRLLISDASNRATGIPARFSGSGSGTDFTLTISSLEPEDFAVYYCQQRHTWPPAYTFGQGTKLEIK
B5: BD55-6327 (protein)
chain 1: EVQLLDSGGGLVQPGGSLRLSCAASGFTFSAYAMTWVRQAPGKGLEWVSSITDSGAGAFYADSVKGRFTVSRDNSKNTLYLQMNSLRAEDTAVYYCAREILVPTAMVFDSWGQGALVSVSS
chain 2: DIVMTQSPDSLAVSLGERATINCKSSQNVLYRADSKNYLAWYQQKPGQPPKLLIYWASTRESGVPDRFSGSGSGTDFTLTISSLQAEDVAVYYCQQYYSTPGITFGQGTRLEIK
B6: BD55-6329 (protein)
chain 1: EVQLVESGGGLIQPGGSLRLSCAASGFTVSRNLMGWVRQAPGKGLEWLAVIYSGGTTYFADSVRGRFTISRDNSKNTLSLQMNSLTAEDTAVYYCAGEQGSGRWRGTLFDSWGQGTLVTVSS
chain 2: QSVLTQPPSVSGAPGQRVTISCTGSSSNIGAGYDVHWYQQLPGTAPKLLMYGNSNRPSGVPDRFSGSKSGTSASLTITGLQAEDEADYYCQSYDSSLSVLYVFGSGTRVTVL
B7: BD55-6331 (protein)
chain 1: QLQLQESGPGLVKPSETLSLTCTVSGGSISSSSYYWGWIRQPPGKGLEWIGNVYFGGSTFYNPSLKSRVTISVDTSKNLFSLKLTSVTAADTAVYYCAVLRGYSYGYDAFDIWGQGTMVTVSS
chain 2: DIQMTQSPSSLSASVGDRVTITCRASQSISNYLNWYQQKPGKVPKLLIYAASSLQSGVPSRFSGSGSGTDFTLTISSLQPEDFATYYCQQSYSPALVTFGPGTKVQIK
B8: BD55-6332 (protein)
chain 1: QVLLVQSGAEVKKPGASVKVSCKASGYTFSNYGISWVRQAPGQGLEWMGWVSAYKDNTLHAHKFQGRVTMTTDTSTNTAYMQLKSLRSDDTAIYYCAREAGTLSVRFDPWGQGTLVTVSS
chain 2: DVQMTQSPSSLSASVGDRVTITCRASQSISNYLNWYQQKPGKAPKLLIYDASSLQGGVPSRFSGSGSGTDFTLTITSLQPEDFATYFCQQSYITPPYTFGQGTKLEIK
B9: BD55-6335 (protein)
chain 1: EVQLLESGGGLVQPGGSLKLSCAASGFSFSNYAMTWVRQAPGKGLEWVTGISDSGGNTYYADSVKGRCTISRDNSKNMLYLQMNSLRAEDTAVYYCAKERGRGFGEPYAFDIWGQGTMVIVSS
chain 2: DIVMTQSPDSLAVSLGERATINCRSSQSVLYSSINRNYLAWYQQKPGQPPKLLIYWASTRESGVPDRFSGSGSGTDFTLTISTLQAEDAAVYYCQQYYATPLTFGGGTKVAIK
B10: BD55-6336 (protein)
chain 1: QVQLVESGGGVVQPGKSVRLSCTSSGFTFSSYAIHWVRQAPGKGLEWVAVMSYDGSNEYVADSVKDRFTISRDNSKNTLYLQMNSLRAEDTAIYYCARDGTTWGYFFFYMDVWGKGTTVTVSS
chain 2: DIVLTQSPGTLSLSPGERATLSCRARQSVSSSYLAWYQQKPGQAPRLLIYDASTRATGIPDRFSGSGSGTDFTLTISRLEPEDSAVYYCQQYAKSVKTFGQGTKVEIK
B11: BD55-6339 (protein)
chain 1: QVQLQESGPGLVKPSQTLSLTCTVSGGSISSGSYYWSWIRQPAGKGLEWIGRIHTRGNTNSKPSLKSRVIISLDTSKNQFSLRLSSVTAADTAVYYCARDLDEARRGYSGYDLVGDAMDVWGQGTTVTVSS
chain 2: QSVLTQPPSVSGAPGQRVTISCTGSSSNIGAGYDVHWYQQLPGTAPKLLIYNNNNRPSGVPDRFSGSKSGTSASLAITGLQAEDEADYYCQSFDSSLTGSRVFGGGTKLTVL
B12: BD55-6341 (protein)
chain 1: QVQLVESGGRVVQPGRSLRLSCAVSGITFSHYGMHWVRQAPGKGLEWVAVISYDGSDRYYGDSVKGRFSITRDDSKNTVYLQMNSLRTEDTAVYYCAKNMGPYCGGGNCYGGYLDYWGQGTLVTVSS
chain 2: DIQMTQSPSSLSASVGDRVTITCQASQDIRNYLNWYQQKPGKAPKLLIYDASNLETGVPSRFSGSGSGTDFTFTISSLQPEDFATYYCHQYDSVPYTFGQGTKLEIK

target: SARS-CoV-2 Omicron BA.1 spike pseudovirus; test: pseudovirus neutralization IC50; higher = weaker neutralization
Experimental: (§1)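 Single-round VSV luciferase pseudovirus mixed with antibody dilutions for 1 h and put on Huh-7 cells for about a day; IC50 from the dose curve.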

Binder	pseudovirus neutralization IC50 [µg/mL]
B1	> 10
B2	> 10
B3	> 10
B4	> 10
B5	> 10
B6	0.987
B7	> 10
B8	> 10
B9	> 10
B10	3.52
B11	> 10
B12	> 10

target: SARS-CoV-2 Omicron BA.2 spike pseudovirus; test: as above
Experimental: as §1

Binder	pseudovirus neutralization IC50 [µg/mL]
B1	> 10
B2	> 10
B3	> 10
B4	> 10
B5	> 10
B6	> 10
B7	> 10
B8	> 10
B9	> 10
B10	> 10
B11	> 10
B12	> 10

target: SARS-CoV-2 Omicron BA.2.75 spike pseudovirus; test: as above
Experimental: as §1

Binder	pseudovirus neutralization IC50 [µg/mL]
B1	> 10
B2	> 10
B3	> 10
B4	> 10
B5	> 10
B6	> 10
B7	> 10
B8	> 10
B9	> 10
B10	> 10
B11	> 10
B12	> 10

target: SARS-CoV-2 Omicron BA.5 spike pseudovirus; test: as above
Experimental: as §1

Binder	pseudovirus neutralization IC50 [µg/mL]
B1	> 10
B2	> 10
B3	> 10
B4	> 10
B5	> 10
B6	> 10
B7	> 10
B8	> 10
B9	> 10
B10	> 10
B11	> 10
B12	> 10

target: SARS-CoV-2 Omicron BQ.1.1 spike pseudovirus; test: as above
Experimental: as §1

Binder	pseudovirus neutralization IC50 [µg/mL]
B1	> 10
B2	> 10
B3	> 10
B4	> 10
B5	> 10
B6	> 10
B7	> 10
B8	> 10
B9	> 10
B10	> 10
B11	> 10
B12	> 10

target: SARS-CoV-2 Omicron XBB spike pseudovirus; test: as above
Experimental: as §1

Binder	pseudovirus neutralization IC50 [µg/mL]
B1	> 10
B2	> 10
B3	> 10
B4	> 10
B5	> 10
B6	> 10
B7	> 10
B8	> 10
B9	> 10
B10	> 10
B11	> 10
B12	> 10

target: SARS-CoV-2 early D614G spike pseudovirus; test: as above
Experimental: as §1

Binder	pseudovirus neutralization IC50 [µg/mL]
B1	> 10
B2	0.431
B3	0.0757
B4	1.42
B6	3.74
B7	> 10
B8	4.75
B9	> 10
B10	> 10
B11	1.07
B12	> 10
